Tested on: honeybees
Assay: Field Assay: consumption of pollen supplement patties by honeybees
Type: in vivo, Apis mellifera
[1] = field tests of the formulated product

SMILES: CNC(=O)c1cc(Cl)cc(C)c1NC(=O)c1cc(Br)nn1-c1ncccc1Cl [chlorantraniliprole]
- consumption of treated protein by bees versus control/untreated (approximately 10 μg/g patty, 5 days in colonies): same or higher rates than control/untreated
- avoidance of treated feed patties by honey bees versus untreated control patties [1]: no avoidance
- preference of honey bees for patties [1]: some evidence of a preference for treated patties

— patent US20250160328A1, “COMPOSITIONS AND METHODS FOR REDUCING PARASITIC INFESTATION OF HONEY BEE HIVES” (University of Georgia Research Foundation, Inc., priority 2022, published 2025)
